Anti-infective test results gathered from many reports (values: NIAID ChemDB through PubChem).

All rows: tests in culture; organism: Candida albicans; endpoint: MIC

An empty or dashed field is not shown. Lines come from different laboratories, so protocols vary. Two numbers with a dash give a range or band.

compound	strain	result
Cn1nc[n+]([O-])c2c(=O)n(C)c(=O)nc1-2	IFO 0583	50 µg/mL
CCN1c2ccccc2N(CCc2ccccc2)C1C1C(=O)N(c2ccccc2)C(=O)N1c1ccccc1		50 µg/mL
COC(=O)[C@]1(C)CCC[C@]2(C)c3ccc(C(C)C)cc3CCC12	CGMCC 2.2086	>100 µg/mL
O=[N+]([O-])c1cnc[nH]1		>50 µM
CCOC(=O)CCNC(=S)Nc1ccccc1	ATCC2094	58 µg/mL
CC1(C)CC(=O)C2=C(C1)OC(N)=C(C#N)C2c1cc2ccccc2nc1Oc1ccc(F)cc1	MTCC 227	200 µg/mL
Cc1cc(C)c(C(=O)/C=C/c2cc3ccccc3nc2Cl)o1	ATCC 10231	>50 µg/mL
O=c1c2ccccc2[se]n1-c1cc([N+](=O)[O-])ccn1		>500 µg/mL
CCCCCCCCCCCCCC(=O)O[C@@H]1[C@@H](C)[C@@]2(O)[C@@H](C=C(CO)C[C@]3(O)C(=O)C(C)=C[C@@H]23)[C@@H]2C(C)(C)[C@]12OC(C)=O	ATCC 44859	32 µg/mL
C[C@@H](c1nc(-c2ccc(C#N)cc2)cs1)[C@](O)(Cn1cnnc1)c1ccc(F)cc1F	Isogenic isolate 7 MDR1 (25X)	≤0.008 µg/mL
CCC(C)CC(C)CCCCCCCCC(=O)N[C@H]1C[C@@H](O)[C@@H](O)NC(=O)[C@@H]2[C@@H](O)CCN2C(=O)[C@H]([C@H](O)CC(N)=O)NC(=O)[C@H]([C@H](O)[C@@H](O)c2ccc(OC(=O)N(C)CC(=O)O)cc2)NC(=O)[C@@H]2C[C@@H](O)CN2C(=O)[C@H]([C@@H](C)O)NC1=O	MY1055	4 µg/mL
COc1cccc2c1C(=O)c1c(O)c3c(c(O)c1C2=O)C[C@@](O)(C(=O)CO)C[C@@H]3O[C@H]1C[C@H](N)[C@H](O)[C@H](C)O1		500–1500 µg/mL
COC(=O)CCNC(=S)NC1COOc2ccccc21	ATCC2094	>128 µg/mL
C[C@@H]1C[C@@H]([C@H](O)CC2CC(=O)NC(=O)C2)C(=O)[C@@H](C)C1		12.5 µg/mL
COc1c(-c2ccccc2)oc2cc3c(c(OC)c2c1=O)OCO3		500 µg/mL
CCOc1ccc2[nH]c3c(c2c1)C1[C@](C)(C(=O)OC)CCC[C@]1(C)c1ccc(C(C)C)cc1-3	CGMCC 2.2086	62.5 µg/mL
CCC(C)CC(C)CCCCCCCCC(=O)N[C@H]1C[C@@H](O)[C@@H](O)NC(=O)[C@@H]2[C@@H](O)CCN2C(=O)[C@H]([C@H](O)CC(N)=O)NC(=O)[C@H]([C@H](O)[C@@H](O)c2ccc(OC(=O)NCCN(C)C)cc2)NC(=O)[C@@H]2C[C@@H](O)CN2C(=O)[C@H]([C@@H](C)O)NC1=O	MY1055	2 µg/mL
Cc1c(OCC(F)(F)F)ccnc1CS(=O)c1nc2ccccc2[nH]1	Clinical isolates	128 µg/mL
CC(=O)CCCNC(=S)Nc1ccc([N+](=O)[O-])cc1	ATCC2094	10 µg/mL
COc1cc(/C=C/NC(=O)C2CCCN2C)c(Br)cc1Br		142.8 µg/mL
NC(=NCCCCCCN=C(N)/N=C(\N)Nc1ccc(Cl)cc1)/N=C(\N)Nc1ccc(Cl)cc1		55 µM
O=c1c2ccccc2[se]n1-c1cc(Cl)ccn1		>500 µg/mL
NCCCn1ccnc1		>50 µM
CC1OC(OC2C(O[C@H]3CC[C@@]4(C)C(CC[C@]5(C)C4CC=C4C6CC(C)(C)CC[C@]6(C(=O)O)CC[C@]45C)[C@]3(C)CO)OCC(O)C2O)C(O)C(OC2OCC(O)C(O)C2O)C1O	KCTC 1940	25 µg/mL
C/C=C(/C)C(=O)O[C@@H]1c2cc(C(C)=O)ccc2O[C@@H]1C(C)(C)O	ATCC 10231	>400 µg/mL
C[C@@H]1O[C@@H](OC2[C@H](O[C@H]3CC[C@@]4(C)[C@@H](CC[C@]5(C)[C@@H]4CC=C4[C@@H]6CC(C)(C)CC[C@@]6(C(=O)O)CC[C@]45C)[C@]3(C)CO)OC[C@H](O)[C@@H]2O)[C@H](O)[C@H](O[C@@H]2O[C@H](CO)[C@@H](O)[C@H](O)[C@H]2O)[C@H]1O	KCTC 1940	>200 µg/mL
COc1cc(/C=C/C(=O)c2cc(OC)c(OC)c(OC)c2)cc(OC)c1OC	ATCC 10231	>50 µg/mL
C=C(Cl)/C=C/[C@H](O)CC(=C)C[C@H]1OC2[C@@H](O)[C@]3(O)C[C@@H](O)[C@H](C)[C@H](CCC/C=C\[C@@H]4C[C@@H](O)C[C@]5(C[C@H](OC)CC(CC(=O)[C@@H](C)[C@H](OC(C)=O)[C@@H](C)C(=C)C[C@@H]6C[C@@](C)(O)C[C@]7(C[C@H](OC(C)=O)CC(CC(=O)O[C@@H]([C@@H]1O)[C@H]2C)O7)O6)O5)O4)O3	ATCC 60193	3.13 µg/mL
CCC(C)CC(C)CCCCCCCCC(=O)N[C@H]1C[C@@H](O)[C@@H](O)NC(=O)[C@@H]2[C@@H](O)CCN2C(=O)[C@H]([C@H](O)CC(N)=O)NC(=O)[C@H]([C@H](O)[C@@H](O)c2ccc(OC(=O)NCC(=O)O)cc2)NC(=O)[C@@H]2C[C@@H](O)CN2C(=O)[C@H]([C@@H](C)O)NC1=O	MY1055	128 µg/mL
COc1ccc2nc(Oc3ccc(C)cc3)c(C3C(C#N)=C(N)OC4=C3C(=O)CCC4)cc2c1	MTCC 227	1000 µg/mL
COC(=O)CCNC(=S)Nc1ccc(OC)c(OC)c1	ATCC2094	68 µg/mL
CO[C@@]12[C@H](COC(N)=O)C3=C(C(=O)C(C)=C(N)C3=O)N1C[C@@H]1N[C@@H]12		500–1500 µg/mL
CC(C)OC(=O)CCNC(=S)Nc1ccccc1	ATCC2094	19 µg/mL
CCC(C)CC(C)CCCCCCCCC(=O)N[C@H]1C[C@@H](O)[C@H](NCCN)NC(=O)[C@@H]2[C@@H](O)CCN2C(=O)[C@H]([C@H](O)CCN)NC(=O)[C@H]([C@H](O)[C@@H](O)c2ccc(O)cc2)NC(=O)[C@@H]2C[C@@H](O)CN2C(=O)[C@H]([C@@H](C)O)NC1=O		0.016–2 µg/mL
CN[C@@H]1[C@H](O[C@@H]2OC[C@@H](O)[C@H](O)[C@H]2O)[C@@H](O)[C@H](O[C@H]2c3cc(C)c(C(=O)N[C@H](C)C(=O)O)c(O)c3-c3c(cc4c(c3O)C(=O)c3cc(OC)cc(O)c3C4=O)[C@@H]2O)O[C@@H]1C	A9540	3.1 µg/mL
CCCCC[C@@H](O)[C@H]1C(=O)O[C@H](C)[C@@H](O)/C=C/C=C/C=C/C=C/C=C(\C)[C@@H](O)C[C@H](O)C[C@H](O)C[C@H](O)C[C@H](O)C[C@H](O)C[C@@H]1O	IPA	1.2 µg/mL
CCCCCC	ATCC 10231	8000 µg/mL
S=C(S)C1N(CCc2ccccc2)c2ccccc2N1CCc1ccccc1		200 µg/mL
COC(=O)CCNC(=S)Nc1ccc(OC)cc1	ATCC2094	5 µg/mL
COc1cc([C@@H]2c3cc4c(cc3[C@@H](O[C@@H]3O[C@@H]5CO[C@@H](C)O[C@H]5[C@H](O)[C@H]3O)[C@H]3COC(=O)[C@H]23)OCO4)cc(OC)c1O		50–100 µg/mL
COc1ccc(/C=C/C(=O)c2ccc(C)cc2)cc1	ATCC 10231	>50 µg/mL
CC(C)C(=O)CCCNC(=S)Nc1ccccc1	ATCC2094	>128 µg/mL
COc1cc(O)c2c(c1)C(=O)c1c(cc3c(c1O)-c1c(cc(C)c(C(=O)N[C@H](CO)C(=O)O)c1O)[C@H](O[C@@H]1O[C@H](C)[C@H](N(C)C)[C@H](O)[C@H]1O)[C@H]3O)C2=O	A9540	6.3 µg/mL
C[C@@H]1[C@H](O)[C@@H](C)/C=C/C=C/CC/C=C/C=C/C=C/C=C/[C@H](O[C@@H]2O[C@H](C)[C@@H](O)[C@H](N)[C@@H]2O)C[C@@H]2O[C@](O)(C[C@@H](O)[C@H](O)CC[C@@H](O)C[C@@H](O)C[C@@H](O)CC(=O)O[C@H]1C)C[C@H](O)[C@H]2C(=O)O	MTCC 227	500 µg/mL
CCCCCOc1ccc(-c2cc(-c3ccc(C(=O)N[C@H]4C[C@@H](O)[C@@H](O)NC(=O)[C@@H]5[C@@H](O)[C@@H](C)CN5C(=O)[C@H]([C@H](O)CC(N)=O)NC(=O)[C@H]([C@H](O)[C@@H](O)c5ccc(O)c(OS(=O)(=O)O)c5)NC(=O)[C@@H]5C[C@@H](O)CN5C(=O)[C@H]([C@@H](C)O)NC4=O)cc3)no2)cc1		0.015–0.3 µg/mL
Cn1nc(-c2ccccc2)nc2c(=O)n(-c3ccccc3)c(=O)nc1-2	IFO 0583	100 µg/mL
O=c1c2cccnc2[se]n1-c1ccc(Cl)cc1		>500 µg/mL
Nc1[nH]c(=O)ncc1F	ATCC 64549	200 µg/mL
COC(=O)[C@]1(C)CCC[C@]2(C)c3ccc(C(C)C)cc3-c3[nH]c4ccc(C)cc4c3C12	CGMCC 2.2086	>100 µg/mL
COc1c(O)cc2oc(-c3ccccc3)c(OC)c(=O)c2c1O		500 µg/mL
CCCCCCCCO[C@]1([C@@H]2CSC(=O)N2)C[C@H]2C[C@@H](CC[C@H](C)/C=C\CC/C(C)=C\C(=O)O2)O1	ATCC 10231	14.7 µM
CCN1c2ccccc2N(CCc2ccccc2)C1CC#N		400 µg/mL
Cn1nc(-c2ccc(Br)cc2)[n+]([O-])c2c(=O)n(-c3ccccc3)c(=O)nc1-2	IFO 0583	20 µg/mL
C/C=C(/C)C(=O)O[C@@H]1c2cc(C(C)=O)c(OC)cc2O[C@@H]1C(C)(C)O	ATCC 10231	>400 µg/mL
Cn1nc(-c2ccc(Cl)c(Cl)c2)nc2c(=O)n(C)c(=O)nc1-2	IFO 0583	5 µg/mL
COc1cccc(/C=C/C(=O)c2ccc(Br)cc2)c1	ATCC 10231	>50 µg/mL
C=C1/C=C(\C)[C@H](CC)OC(=O)[C@H](C)C(=O)C(O)(CO)C/C(OC)=C/[C@@H](C)C1	ATCC 90028	2.5 µg/mL
COc1cc(O)c2c(c1)C(=O)c1c(cc3c(c1O)-c1c(cc(C)c(C(=O)N[C@H](C)C(=O)O)c1O)[C@H](O)[C@H]3O)C2=O	A9540	>100 µg/mL
Cn1nc(-c2ccc(Cl)c(Cl)c2)[n+]([O-])c2c(=O)n(C)c(=O)nc1-2	IFO 0583	20 µg/mL
COC(=O)[C@]1(C)CCC[C@]2(C)c3ccc(C(C)C)cc3-c3[nH]c4c(Br)cccc4c3C12	CGMCC 2.2086	>100 µg/mL
CCn1c(=S)n(CCc2ccccc2)c2ccccc21		>800 µg/mL
C[C@H]1[C@H](O)[C@@H](C)/C=C/C=C/C=C/C=C/C=C/C=C/C=C/[C@H](O[C@@H]2O[C@H](C)[C@@H](O)[C@H](N)[C@@H]2O)C[C@@H]2O[C@](O)(C[C@@H](O)C[C@@H](O)CC[C@H](O)[C@@H](O)C[C@@H](O)CC(=O)O[C@H]1C)C[C@H](O)[C@H]2C(=O)O		0.125–2 µg/mL
Cc1ccc(Oc2nc3ccc(C)cc3cc2C2C(C#N)=C(N)OC3=C2C(=O)CC(C)(C)C3)cc1	MTCC 227	1000 µg/mL

For reference, 5 entries again:

compound	strain	result
CCCCCOc1ccc(-c2cc(-c3ccc(C(=O)N[C@H]4C[C@@H](O)[C@@H](O)NC(=O)[C@@H]5[C@@H](O)[C@@H](C)CN5C(=O)[C@H]([C@H](O)CC(N)=O)NC(=O)[C@H]([C@H](O)[C@@H](O)c5ccc(O)c(OS(=O)(=O)O)c5)NC(=O)[C@@H]5C[C@@H](O)CN5C(=O)[C@H]([C@@H](C)O)NC4=O)cc3)no2)cc1		0.015–0.3 µg/mL
COC(=O)CCNC(=S)Nc1ccc(OC)cc1	ATCC2094	5 µg/mL
O=[N+]([O-])c1cnc[nH]1		>50 µM
Cn1nc(-c2ccccc2)nc2c(=O)n(-c3ccccc3)c(=O)nc1-2	IFO 0583	100 µg/mL
CCCCCCCCO[C@]1([C@@H]2CSC(=O)N2)C[C@H]2C[C@@H](CC[C@H](C)/C=C\CC/C(C)=C\C(=O)O2)O1	ATCC 10231	14.7 µM